Measured values: US20250248992A1, “INNATE IMMUNE-ACTIVATING DRUG AND USE THEREOF” (LUODA BIOPHARMA (SUZHOU) CO., LTD., priority 2021, published 2025)

Test system: VSV-GFP
Assay: Inhibition of VSV-GFP infection in A549 cells
Type: cell-based, Vesicular stomatitis virus (VSV)

Nc1ccc2c(N)c3ccccc3nc2c1
SI (Selection Index): 135.1
